Reference: US20250243261A1 (CZ BIOHUB SF, published 2025)

Tests used:
[1] = biological target: SARS-CoV-2 Beta Spike on pseudotyped lentivirus (SARS-CoV-2 Beta variant); assay: cell-based or functional assay
[2] = biological target: SARS-CoV-2 D614G Spike on pseudotyped lentivirus (SARS-CoV-2); assay: cell-based or functional assay

B1: C143 WT IgG (antibody, V domains shown)
VH: EVQLVESGGGLVQPGGSLRLSCAASGFSVSTKYMTWVRQAPGKGLEWVSVLYSGGSDYYADSVKGRFTISRDNSKNALYLQMNSLRVEDTGVYYCARDSSEVRDHPGHPGRSVGAFDIWGQGTMVTVSS
VL: QSALTQPASVSGSPGQSITISCTGTSNDVGSYTLVSWYQQYPGKAPKLLIFEGTKRSSGISNRFSGSKSGNTASLTISGLQGEDEADYYCCSYAGASTFVFGGGTKLTVL
- Beta pseudotyped lentivirus IC50 [1]: 6000 µg/mL
- D614G pseudotyped lentivirus IC50 [2]: 1400 µg/mL

B2: C143 VL T33N-G53V IgG (antibody, V domains shown)
VH: EVQLVESGGGLVQPGGSLRLSCAASGFSVSTKYMTWVRQAPGKGLEWVSVLYSGGSDYYADSVKGRFTISRDNSKNALYLQMNSLRVEDTGVYYCARDSSEVRDHPGHPGRSVGAFDIWGQGTMVTVSS
VL: QSALTQPASVSGSPGQSITISCTGTSNDVGSYNLVSWYQQYPGKAPKLLIFEVTKRSSGISNRFSGSKSGNTASLTISGLQGEDEADYYCCSYAGASTFVFGGGTKLTVL
- Beta pseudotyped lentivirus IC50 [1]: 300 µg/mL
- D614G pseudotyped lentivirus IC50 [2]: 80 µg/mL
